Record: PubChem BioAssay AID1259414 (Drosophila RNAi Screening Center, 2018)

Assay: 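Host factors increasing or decreasing Wolbachia levels in cultured fly cells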 (primary screen)
Cell system: Drosophila JW18 cells infected with Wolbachia
Reagent: long dsRNA against Drosophila genes, 0.25 µg dsRNA per well of a 384-well plate
Time to read-out: 5 days
Treatment: cells persistently infected with Wolbachia before knock-down; no added drug
Measured: 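Imaged fluorescence in situ signal for Wolbachia 23S rRNA per DAPI-counted host cell, given as a robust z-score within each plate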
Reading the numbers: Wolbachia per cell robust z: higher = more Wolbachia per host cell than the plate typical
Rule for the call: 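Hit when robust z is 1.5 or more, or -1.5 or less, in at least two of three replicates; excludes dsRNAs with several or no targets, genes not expressed in JW18 and well A1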
The deposit covers about 24,000 reagents; this is an unselected part of those that have a named target and a result. In the full data, about 1,210 (5%) got an active call. 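Inactive calls also include excluded dsRNAs with several or no targets, genes unexpressed in JW18, and well A1, regardless of score.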 A plus sign joins genes that one reagent is predicted to hit.

The opening 4 records, to show the layout:
Gene | amplicon | Wolbachia per cell robust z, rep 1 | Wolbachia per cell robust z, rep 2 | Wolbachia per cell robust z, rep 3 | Call
COX6AL2 + Ir75d | DRSC10081 | -1.41 | -0.704 | 0.427 | inactive
CG12688 (retired record) | DRSC17877 | 0.918 | -0.0924 | 0.757 | inactive
CG12688 (retired record) | DRSC17878 | 0.333 | -1.84 | -0.000151 | inactive
CG42733 | DRSC25375 | -2.02 | 0.499 | -0.452 | inactive

Results, from the start:
Gene | amplicon | Wolbachia per cell robust z, rep 1 | Wolbachia per cell robust z, rep 2 | Wolbachia per cell robust z, rep 3 | Call
COX6AL2 + Ir75d | DRSC10081 | -1.41 | -0.704 | 0.427 | inactive
CG12688 (retired record) | DRSC17877 | 0.918 | -0.0924 | 0.757 | inactive
CG12688 (retired record) | DRSC17878 | 0.333 | -1.84 | -0.000151 | inactive
CG42733 | DRSC25375 | -2.02 | 0.499 | -0.452 | inactive
Qsox3 (Quiescin sulfhydryl oxidase 3) | DRSC16096 | 0.783 | 0.361 | -0.408 | inactive
CG42445 | DRSC10858 | -6.81 | 0.259 | -0.591 | inactive
sNPF (short neuropeptide F precursor) | DRSC23403 | 0.743 | 0.0889 | 0.696 | inactive
CG4829 | DRSC19920 | -4.19 | -1.74 | 0.654 | inactive
CG42393 | DRSC40578 | 0.373 | -0.912 | -0.373 | inactive
RpS9 (Ribosomal protein S9) | DRSC11273 | 0.807 | 2.16 | 5.1 | active
NimB1 (Nimrod B1) | DRSC01880 | -0.338 | 0.559 | 0.586 | inactive
disp (dispatched) | DRSC12376 | -0.13 | -1.52 | 0.164 | inactive
CG34199 | DRSC05867 | -0.0584 | 1.03 | 0.507 | inactive
CG34199 | DRSC28143 | -1.17 | 0.268 | 0.0382 | inactive
wls (wntless) | DRSC10605 | -2.57 | 0.689 | -0.393 | inactive
wls (wntless) | DRSC29313 | -0.246 | -0.533 | -1.74 | inactive
CG10418 | DRSC09720 | 0.715 | -0.543 | -1.8 | inactive
fbl (fumble) | DRSC11886 | 0.767 | -0.851 | -1.2 | inactive
fbl (fumble) | DRSC27922 | 1.01 | 0.83 | 0.461 | inactive
fbl (fumble) | DRSC29115 | 1 | 0.703 | 0.706 | inactive
CG15225 | DRSC23269 | 0.694 | 0.191 | -0.506 | inactive
CG15225 | DRSC29370 | 1.07 | 0.153 | 1.18 | inactive
lncRNA:CR31647 (long non-coding RNA:CR31647) | DRSC21903 | -1.98 | -0.797 | -0.676 | inactive
lncRNA:CR31647 (long non-coding RNA:CR31647) | DRSC24136 | 2.45 | 0.924 | 0.373 | inactive
CG11768 + CG34135 + Nasp | DRSC29630 | -2.14 | -0.0107 | -1.11 | inactive
SLC5A11 (Sodium/solute co-transporter-like 5A11) | DRSC03088 | 0.992 | 0.626 | 0.038 | inactive
Wbp2 (WW domain binding protein 2) | DRSC25018 | -0.5 | -0.558 | 0.0312 | inactive
RpL39 (Ribosomal protein L39) | DRSC04651 | 1.11 | 2.85 | 1.46 | inactive
CG15594 | DRSC12280 | 0.323 | -1.13 | 0.42 | inactive
Nipped-A | DRSC04883 | 1.7 | 1.39 | -0.0747 | inactive
Nipped-A | DRSC04884 | -3.03 | 2.05 | -6.28 | active
Nipped-A | DRSC07738 | -1.44 | -1.03 | -0.0264 | inactive
Nipped-A | DRSC22386 | -0.0893 | 0.503 | 0.435 | inactive
CG13841 | DRSC14691 | -4.36 | 0.671 | 0.434 | inactive
CG13841 | DRSC26257 | 2.2 | 1.56 | 2.47 | active
LamC (Lamin C) | DRSC07453 | -8.96 | 1.01 | 0.223 | inactive
LamC (Lamin C) | DRSC25517 | 0.45 | -1.06 | -1.61 | inactive
chrb (charybde) | DRSC11335 | 0.69 | 0.308 | -0.59 | inactive
chrb (charybde) | DRSC25273 | 0.081 | 0.00248 | -0.652 | inactive
ppk5 (pickpocket 5) | DRSC11492 | 1.04 | -0.79 | 0.793 | inactive
dod (dodo) | DRSC20577 | 0.677 | 0.933 | 1.17 | inactive
dod (dodo) | DRSC26403 | 0.853 | -0.232 | -1.74 | inactive
CG2909 | DRSC18241 | 0.0158 | -3.08 | -1.19 | inactive
ko (knockout) | DRSC11893 | -0.275 | -0.31 | 0.444 | inactive
ko (knockout) | DRSC26598 | 0.532 | 0.431 | -0.515 | inactive
CG2680 | DRSC18466 | 0.458 | 0.0605 | -3.52 | inactive
CG2680 | DRSC41351 | -3.16 | -0.198 | 0.284 | inactive
Task7 (TWIK-related acid-sensitive K[+] channel 7) | DRSC16477 | 1.4 | 1.06 | 0.211 | inactive
Task7 (TWIK-related acid-sensitive K[+] channel 7) | DRSC26662 | -0.379 | -2.16 | -2.24 | inactive
uncNacbeta | DRSC00326 | 0.139 | -1.07 | -1.28 | inactive
lectin-22C | DRSC40599 | -2.46 | -1.04 | -2.28 | inactive
Ibf1 (Insulator binding factor 1) | DRSC16419 | -0.494 | 0.724 | 0.31 | inactive
CG15443 | DRSC00455 | -2.91 | -0.28 | -0.539 | inactive
CG8907 | DRSC16453 | -1.15 | 0.968 | 1.1 | inactive
CG8907 | DRSC27500 | 0.641 | 0.153 | -0.444 | inactive
ckd (cracked) | DRSC08418 | -3.64 | 1.36 | -2.83 | inactive
pes (peste) | DRSC03033 | -3.09 | 0.674 | 1.08 | inactive
pes (peste) | DRSC25954 | 0.769 | 0.464 | 0.911 | inactive
CG16762 | DRSC08493 | 0.368 | -4.47 | -0.531 | inactive
CG34462 | DRSC10768 | -0.277 | -1.29 | -1.11 | inactive
CG34462 | DRSC25352 | -0.438 | 1.91 | 1.45 | inactive
Pig1 (Pre-intermoult gene 1) | DRSC24991 | -0.104 | -0.609 | 0.273 | inactive
CG6839 | DRSC10723 | 0.73 | 0.193 | 0.535 | inactive
Hsdl2 (Hydroxysteroid dehydrogenase like 2) | DRSC15839 | -0.765 | -0.446 | 1.17 | inactive
Hsdl2 (Hydroxysteroid dehydrogenase like 2) | DRSC28075 | 0.87 | 0.681 | -0.661 | inactive
CG3726 | DRSC23143 | 0.407 | -1.91 | -1.3 | inactive
CG3726 | DRSC27453 | 1.68 | 0.536 | 0.739 | inactive
fid (fire dancer) | DRSC14885 | 0.89 | -2.09 | 1.14 | inactive
fid (fire dancer) | DRSC16464 | -0.361 | -2.31 | -3.03 | inactive
fid (fire dancer) | DRSC23529 | 1.26 | 1.7 | 1.57 | inactive
fid (fire dancer) | DRSC25230 | -0.364 | -0.212 | -5.22 | inactive
